Compound potency records, mixed from different reports. Data source: NIAID ChemDB in PubChem.

Shared fields: tests in culture; agent: Mycobacterium tuberculosis

Two numbers with a dash give a range or band. MIC50, MIC90 and the like: level of inhibition, or share of isolates inhibited. Percent inhibition refers to the dose given; in toxicity tests it is the harm to the cells. An empty or dashed field is not shown. Neighbouring rows are from separate reports. ECn is the concentration giving n% inhibition of infection, replication or growth. MIC bound: limit read from a one-dose screen.

smiles | cells | strain or isolate | read by | read-out | dose | result
Nc1c(Br)cc(Br)cc1CNC1CCC(O)CC1 | - | 10 isolates | - | MIC | - | 50–100 µg/mL
CC1CCCC2(C1)SC(C)C(=O)N2NC(=O)Cc1csc2nc(-c3ccc(Cl)cc3)cn12 | - | H37Rv | - | EC50 | - | <6.25 µg/mL
Cc1c(Cl)c(=O)oc2cc(OCCN3CCN(Cc4ccc(Br)cc4)CC3)ccc12 | - | H37Rv | fluorescence | inhibition | 100 µM | 67.94%
CC1CCC2(CC1)SCC(=O)N2NC(=O)Cc1csc2nc(-c3ccccc3)cn12.O | - | H37Rv | - | MIC | - | <6.25 µg/mL
CCOC(=O)c1cnc(C2CCCCC2)[nH]1 | - | H37Rv | - | MIC | - | >6.25 µg/mL
COc1ccc(/C=N/N=c2\scc(-c3cc4cc(Br)ccc4oc3=O)n2C2CCCCC2)cc1 | - | H37Rv | - | MIC | - | >6.25 µg/mL
CCC1CCC(=NNC(=O)Cc2csc3nc(-c4ccccc4)cn23)CC1 | - | H37Rv | - | EC50 | - | >6.25 µg/mL
C[C@@H]1CN(c2c(F)c(N)c3c(=O)c(C(=O)O)cn(C4CC4)c3c2F)C[C@H](C)N1 | - | 18 strains | - | MIC50 | - | 0.25 µg/mL
C=CC[N+]1(CCOC(=O)Nc2ccccc2OCCCCCC)CCCCC1 | - | My 331/88 | - | MIC | - | 32 µM
Cc1cc(S(=O)(=O)N2CCNC2=O)c(S)cc1Cl | - | H37Rv | resazurin | MIC bound | - | >6.25 µg/mL
O=c1ccc2ccc(OCCN3CCN(Cc4ccc(Br)cc4)CC3)cc2o1 | - | H37Rv | fluorescence | inhibition | 1 µM | 4.82%
COc1ccc2c(c1)CN(c1ccc([N+](=O)[O-])cc1)CO2 | - | - | absorbance | MIC | - | 6.7 µg/mL
NNC(=O)c1ccncc1 | - | H37Rv | resazurin | MIC | - | 0.02 µM
CCC(CO)NC[C@H]1N[C@@H](CO)[C@@H](O)[C@@H]1O | - | H37Ra | - | MIC | - | >128 µg/mL
CN[C@@H]1[C@H](O[C@H]2[C@H](O[C@H]3[C@H](O)[C@@H](O)[C@H](N=C(N)N)[C@@H](O)[C@@H]3N=C(N)N)O[C@@H](C)[C@]2(O)C=O)O[C@@H](CO)[C@H](O)[C@H]1O | - | H37Rv | - | EC50 | - | 0.2 µg/mL
Cc1ccc(S(=O)(=O)NNC(=O)C2(C)CC2(C)C(=O)O)cc1 | - | H37Rv | BACTEC | MIC | - | ≥12.5 µg/mL
CCCCc1ccc(NC(=S)Nc2ccc(CCCC)cc2)cc1 | - | H37Ra | - | MIC | - | 0.1–0.5 µg/mL
CCCCCCCCCNCc1ccc(O)c(OC)c1 | - | H37Ra | resazurin | EC50 | - | 31.7 µM
COc1cc(OC)c(C(=O)CCc2ccccc2)c(OC)c1 | - | H37Rv | MTT | MIC | - | >128 µM
CCCCCCOc1ccccc1NC(=O)OCC[N+]1(C)CCCCC1 | - | My 331/88 | - | MIC | - | 32 µM
COc1c(N2CCNC(C)C2)c(F)cc2c(=O)c(C(=O)O)cn(C3CC3)c12 | - | H37Rv | - | EC50 | - | 0.072 µg/mL
Brc1ccc(N2COc3ccccc3C2)cc1 | - | - | absorbance | MIC | - | 2.5 µg/mL
CC1=Nc2cc3ccccc3cc2N(C)/C1=C/C1=C(Cl)C(=O)c2ccccc2C1=O | - | H37Rv | BACTEC | inhibition | 12.5 µg/mL | 48%
O=[N+]([O-])c1cn2c(n1)O[C@@H](COc1ccc(N3CCC(Cc4ccc(OC(F)(F)F)cc4)CC3)cc1)C2 | - | H37Rv | - | MIC | - | 0.024 µg/mL
CCCCCCOc1ccccc1NC(=O)OCC[N+]1(CCCCCC)CCCCC1 | - | My 331/88 | - | MIC | - | 8 µM
CCOC(=O)c1cc(NC(C)=O)c(C)n1C | - | H37Rv | resazurin | MIC bound | - | >6.25 µg/mL
COc1cc(CC(C)C(C)Cc2ccc3c(c2)OCO3)ccc1O | - | H37Rv | MTT | MIC | - | 128 µM
CC1SC2(CCCCC2)N(NC(=O)Cc2csc3nc(-c4ccccc4)cn23)C1=O.O.O | VERO | H37Rv | - | EC50 | - | <6.25 µg/mL
O=c1ccc2ccc(OCc3ccc(Br)cc3)cc2o1 | - | H37Rv | fluorescence | inhibition | 50 µM | 20.23%
N=C1C=C(N)C(=O)c2[nH]c(=O)ccc21 | - | H37Rv | BACTEC | MIC bound | - | ≤12.5 µg/mL
CN1CCN(c2cc3c(cc2F)c(=O)c(C(=O)O)cn3-c2ccc(F)cc2)CC1 | - | - | - | MIC90 | - | >4 µg/mL
CC1CC(c2ccc3ccccc3c2)NCCNC(c2ccc3ccccc3c2)CC(C)NCCN1 | - | H37Rv | BACTEC | MIC | - | >6.25 µg/mL
COc1cc(CNc2ccccc2B2OC(C)(C)C(C)(C)O2)ccc1O | - | H37Ra | resazurin | MIC90 | - | 200 µM
COC(=O)c1c(C(=O)c2ccccc2)nn2c(-c3ccccc3)c(-c3ccccc3)c(-c3ccccc3)c(-c3ccccc3)c12 | - | H37Rv | resazurin | inhibition | 6.25 µg/mL | 92%
C[C@]1(COc2ccc(N3CCC(Cc4ccc(Cl)cc4)CC3)cc2)Cn2cc([N+](=O)[O-])nc2O1 | - | H37Rv | - | MIC | - | 0.024 µg/mL
Clc1ccc(N2COc3ccccc3C2)c(Cl)c1 | - | - | absorbance | MIC | - | 1.53 µg/mL
COc1cc(CNC(=O)CCCC/C=C/C(C)C)ccc1O | - | H37Ra | resazurin | MIC90 | - | 200 µM
COC1=CC(=O)C(C)=CC1=O | - | H37Rv | BACTEC | MIC bound | - | ≤128 µg/mL
O=[N+]([O-])c1ccccc1N1COc2ccccc2C1 | - | - | absorbance | MIC | - | 1.11 µg/mL
CNC(=O)c1ccc[n+](C2OC(COC(=O)c3ccccc3)C(OC(=O)c3ccccc3)C2OC(=O)c2ccccc2)c1.[Br-] | - | H37Rv | BACTEC | MIC | - | ≥12.5 µg/mL
CCCCCCC[N+]1(CCOC(=O)Nc2ccccc2OCCCCCC)CCCCC1 | - | My 331/88 | - | MIC | - | 16 µM
CCCCCCCCCCCCS(=O)C[C@@H]1N[C@H](CO)[C@@H](O)[C@@H]1O | - | H37Ra | - | MIC | - | 32–64 µg/mL
C=C1C(=O)OC2C1CCC(C)C1CCC(=O)C12C | - | H37Rv | BACTEC | MIC bound | - | >12.5 µg/mL
CCCCCCCCCSC[C@@H]1N[C@H](CO)[C@@H](O)[C@@H]1O | - | H37Ra | - | MIC | - | 32–128 µg/mL
COc1cccc2ccc(N3CCC(c4nc(-c5ccc(Cl)nc5)no4)CC3)nc12 | - | H37Rv | resazurin | MIC | - | 15.6–31.5 µM
COC(=O)C(Cc1ccccc1)NC(=O)N1CCCN(C(=O)NC(Cc2ccccc2)C(=O)OC)CCCN(C(=O)NC(Cc2ccccc2)C(=O)OC)CCC1 | - | H37Rv | resazurin | MIC bound | - | >6.25 µg/mL
CC(CCC(=O)N[C@@H](Cc1ccccc1)C(=O)OCc1cn(CC2OC(n3cnc4c(N)ncnc43)[C@@H]3OC(C)(C)O[C@H]23)nn1)[C@H]1CCC2C3C(C[C@H](O)[C@@]21C)[C@@]1(C)CC[C@@H](O)CC1C[C@H]3O | - | H37Rv | resazurin | MIC | - | 6.74 µM
Clc1ccc(C(c2ccccc2)c2ccc(OCCN3CCCCC3)c3ccccc23)cc1 | - | H37Rv | resazurin | MIC | - | >12.5 µg/mL
CCOC(=O)c1nc(C23CC4CC(CC(C4)C2)C3)[nH]c1C1C2CC3CC(C2)CC1C3 | - | H37Rv | - | inhibition | 6.25 µg/mL | 0%
O=c1oc2ccccc2cc1-c1cs/c(=N/N=C/c2ccc(Br)cc2)n1C1CCCCC1 | - | H37Rv | - | EC50 | - | >6.25 µg/mL
CC1CC/C(=N/O)CCCCC(=O)O1 | - | H37Rv | BACTEC | MIC bound | - | >12.5 µg/mL
CCn1cc(C(=O)O)c(=O)c2cc(F)c(N3CCNCC3)nc21 | - | - | - | MIC90 | - | >4 µg/mL
CC(C)CCOc1ccc(NC(=S)Nc2ccc(OCCC(C)C)cc2)cc1 | - | H37Rv | - | MIC | - | 2.5 µg/mL
CC(C)(N)CNC(C)(C)CO | - | H37Rv | BACTEC | inhibition | 12.8 µg/mL | 10%
Cc1ccc(N2COc3ccccc3C2)cc1 | - | - | absorbance | MIC | - | 5.56 µg/mL
CCC1CCC2(CC1)SCC(=O)N2NC(=O)Cc1csc2nc(-c3ccc(Cl)cc3)cn12 | - | H37Rv | - | EC50 | - | >6.25 µg/mL
COc1cccc2ccc(N3CCC(c4nc(-c5ccc(C(F)(F)F)nc5)no4)CC3)nc12 | - | H37Rv | resazurin | MIC | - | <7.8 µM
Cc1cc(=O)oc2cc(OCc3ccc(Br)cc3)ccc12 | - | H37Rv | fluorescence | inhibition | 1 µM | 10.02%
O=C(O)CCc1cnc(C2CCCCC2)[nH]1 | - | H37Rv | - | MIC | - | >6.25 µg/mL
CC[C@H](CO)NC[C@@H]1O[C@H](CO)[C@@H](O)[C@@H]1O | - | H37Ra | - | MIC | - | >128 µg/mL
CCCCC1CCCCCCc2[nH]c(/C=C3\N=C(c4ccc[nH]4)C=C3OC)cc21.Cl | - | H37Rv | BACTEC | MIC bound | - | ≤12.5 µg/mL
O=[N+]([O-])c1ccc(N2COc3ccccc3C2)cc1 | - | - | absorbance | MIC | - | 1.71 µg/mL
CCCCCCOc1ccccc1NC(=O)OCC[N+]1(CC)CCCCC1 | - | My 331/88 | - | MIC | - | 32 µM
CCCOc1ccc(NC(=S)Nc2ccc(OCCC)cc2)cc1 | - | H37Ra | - | MIC | - | 0.1–0.5 µg/mL
Clc1ccccc1N1COc2ccccc2C1 | - | - | absorbance | MIC | - | 2 µg/mL
C[C@]1(COc2ccc(N3CCN(C/C=C/c4cccc(C(F)(F)F)c4F)CC3)cc2)Cn2cc([N+](=O)[O-])nc2O1 | - | H37Rv | - | MIC | - | 0.024 µg/mL
NC(=O)c1cnccn1 | - | Isolate 97-983 | - | MIC | - | 100 µg/mL
C[C@]1(COc2ccc(N3CCC(COCc4ccc(Cl)c(Cl)c4)CC3)cc2)Cn2cc([N+](=O)[O-])nc2O1 | - | H37Rv | - | MIC | - | 0.024 µg/mL
C=C(C)C(=O)O[C@H]1CC2=C[C@@H](C[C@@]3(C)O[C@H]3[C@H]3OC(=O)C(=C)[C@@H]31)OC2=O | - | H37Rv | BACTEC | MIC | - | ≥12.5 µg/mL
CCCCCCCCCCCCCCCCCCNCc1ccc(O)c(OC)c1 | - | H37Ra | resazurin | MIC90 | - | 75 µM
CCCCCCCCCCC[N+]1(CCOC(=O)Nc2ccccc2OCCCCCC)CCCCC1 | - | My 331/88 | - | MIC | - | 8 µM
Cc1ccc(NC(=O)c2cccc(C(=O)Nc3ccc(C)c(Cl)c3)c2)cc1Cl | - | H37Rv | BACTEC | MIC bound | - | >12.5 µg/mL
CCCCCOc1ccccc1NC(=O)OCC[N+]1(CC)CCCCC1 | - | My 331/88 | - | MIC | - | 500 µM
COc1cc(NS(=O)(=O)c2ccccc2)c2nc3ccc(Cl)cc3nc2c1 | - | H37Rv | BACTEC | MIC bound | - | >12.5 µg/mL
O=c1oc2ccccc2cc1-c1cs/c(=N/N=C/c2ccc(F)cc2)n1C1CCCCC1 | - | H37Rv | - | inhibition | 6.25 µg/mL | 0%
O=C(N/N=C/c1ccccc1)c1cnc(C2C3CC4CC(C3)CC2C4)[nH]1 | - | H37Rv | - | inhibition | 6.25 µg/mL | 9%
CC(C)COc1ccc(NC(=S)Nc2ccc(OCC(C)C)cc2)cc1 | - | H37Ra | - | MIC | - | 0.5 µg/mL
COc1cc(/C=N/N=c2/scc(-c3cc4cc(Br)ccc4oc3=O)n2C2CCCCC2)ccc1O | - | H37Rv | - | EC50 | - | >6.25 µg/mL
CC(CCC(=O)OCc1cn(CC2OC(n3cnc4c(N)ncnc43)[C@@H]3OC(C)(C)O[C@H]23)nn1)[C@H]1CCC2C3CCC4C[C@H](O)CC[C@]4(C)C3C[C@H](O)[C@@]21C | - | H37Rv | resazurin | MIC | - | 4.09 µM
COc1ccc2nc(N3CCC(c4nc(-c5cccnc5)no4)CC3)ccc2c1 | - | H37Rv | resazurin | MIC | - | <7.8 µM
CCCCN1[C@H](CO)[C@@H](O)[C@H](O)[C@@H]1CO | - | H37Ra | - | MIC | - | >128 µg/mL
CC(=O)NNc1nc(C)c(C(/C=C/c2ccc(Cl)cc2)=N/NC(=O)C[N+](C)(C)C)s1.[Cl-] | - | H37Rv | BACTEC | MIC bound | - | >12.5 µg/mL
CC1CCCC2(C1)SC(C)C(=O)N2NC(=O)Cc1csc2nc(-c3ccccc3)cn12.O | - | H37Rv | - | EC50 | - | <6.25 µg/mL
CCOC(=O)c1oc(C(=O)OCC)c(O)c1O | - | H37Rv | BACTEC | inhibition | 12.5 µg/mL | 7%
CCOC(=O)c1nc(C2CCCCC2)[nH]c1C1CCCCC1 | - | H37Rv | - | inhibition | 6.25 µg/mL | 99%
CN1C(=O)C2(Nc3ccccc3N2)c2ccccc21 | - | H37Rv | BACTEC | MIC bound | - | >12.8 µg/mL
O=C(O)c1cn(-c2ccc(F)cc2)c2cc(N3CCNCC3)c(F)cc2c1=O | - | - | - | MIC90 | - | >4 µg/mL

Again, the opening 5 rows:

| smiles | cells | strain or isolate | read by | read-out | dose | result |
|---|---|---|---|---|---|---|
| Nc1c(Br)cc(Br)cc1CNC1CCC(O)CC1 | - | 10 isolates | - | MIC | - | 50–100 µg/mL |
| CC1CCCC2(C1)SC(C)C(=O)N2NC(=O)Cc1csc2nc(-c3ccc(Cl)cc3)cn12 | - | H37Rv | - | EC50 | - | <6.25 µg/mL |
| Cc1c(Cl)c(=O)oc2cc(OCCN3CCN(Cc4ccc(Br)cc4)CC3)ccc12 | - | H37Rv | fluorescence | inhibition | 100 µM | 67.94% |
| CC1CCC2(CC1)SCC(=O)N2NC(=O)Cc1csc2nc(-c3ccccc3)cn12.O | - | H37Rv | - | MIC | - | <6.25 µg/mL |
| CCOC(=O)c1cnc(C2CCCCC2)[nH]1 | - | H37Rv | - | MIC | - | >6.25 µg/mL |